The record followed here is article PMC6359284 (Molecules, 2019).

Where only a bound is given, the exact number is not on record here.

This data set can be described thus: general procedure: Fmoc solid-phase peptide synthesis; NovaSyn TGR resin (0.25 mmol/g); HATU/DIPEA. Conditions: whole synthesis, analytical RP-HPLC.
As for RGDLMKLAK(FB), the “final HPLC purity” value is over 99%. As for RGDLRELAK(FB), the figure is over 99%; as for VGDLTYLKK(FB)KVART, over 99%.
